This passage reports Cytolytic activity by chromium release; Tscm transduced with Triple CAR against HIV-1 infected T2 cells, 10:1 ratio, 3.5 hours results from US20180305435A1.

The target in this test is HIV-1 NL4-3 gp120 envelope on the surface of infected T2 cells (HIV-1 NL4-3). Briefly: cell-based or functional assay.

Turning to “CD4ζ chimeric antigen receptor (fusion molecule of human CD4 with the signaling domain of the CD3 complex ζ-chain) (from UniProt P01730 26-396; P20963 52-164)”, the Cytolytic activity by chromium release; Tscm transduced with Triple CAR against HIV-1 infected T2 cells, 10:1 ratio, 3.5 hours was 28.2%.
